Results of unrelated studies side by side (data: NIAID ChemDB).

Common to all: growth or infection tests; agent: HIV-2; read-out: EC50

Lines come from different laboratories, so protocols vary. ECn: concentration that inhibits the pathogen or its effect by n%. An empty or dashed field is not shown.

SMILES	strain or isolate	changes	cells	method	setting	result
Cc1cn([C@H]2C=C[C@@H](COP3(=O)OCc4ccc5ccccc5c4O3)O2)c(=O)[nH]c1=O	-	-	CEM + CEM/O	-	-	0.12 µM
CN(C)c1cccc2c(S(=O)(=O)N3CCSC3c3cccnc3)cccc12	ROD	-	MAGI + MAGI-CCR5	β-galactosidase	3 d	>2000 µM
N#Cc1ccccc1Cn1cc(CSc2nc(Cc3cccc4ccccc34)c(I)c(=O)[nH]2)nn1	ROD	-	-	MTT	-	>75.93 µM
Nc1ncnc2c1ncn2[C@H]1C=C[C@@H](CO)O1	ROD	-	MOLT-4/C8 + MOLT-4	-	-	25 µM
Cc1cn([C@@H]2C[C@H](CO)[C@@H](O)C2)c(=O)[nH]c1=O	-	-	CEM + CEM/0	-	-	0.4 µM
Nc1nc2c(ncn2CCOCP(=O)(O)O)c(=O)[nH]1	CBL-20	-	C8166	MTT	-	1.1 µM
Cc1cn(/C=C/P(=O)(O)O)c(=O)[nH]c1=O	ROD	-	CEM + CEM-SS	-	-	>200 µM
CCN1c2ncccc2N(C)C(=S)c2oc3cccnc3c21	ROD	-	C8166	cytopathic effect	-	>60 µM
C#C[C@]1(CO)O[C@@H](n2cc(C)c(=O)[nH]c2=O)C[C@@H]1O	ROD	-	HeLa	β-galactosidase	-	0.34 µM
O=c1[nH]c(=O)n(/C=C\P(=O)(O)O)cc1CO	ROD	-	CEM + CEM-SS	-	-	>200 µM
Cc1cn([C@@H]2C[C@H](CO)[C@H](O)C2)c(=O)[nH]c1=O	-	-	CEM + CEM/0	-	-	>250 µM
Cc1cn([C@H]2C=C[C@@H](CO)O2)c(=O)[nH]c1=O	ROD	-	CEM/TK-	MTT	-	217 µM
C[C@H](Cn1cnc2c(=O)[nH]c(N)nc21)OCP(=O)(O)O	CBL-20	-	C8166	MTT	-	5 µM
O=c1cc(-c2ccccc2)oc2cc(O)cc(O)c12	ROD	-	C8166	ELISA	-	40 µg/mL
CC(=O)Nc1nc2c(ncn2/C=C\P(=O)(O)O)c(=O)[nH]1	ROD	-	CEM + CEM-SS	-	-	>200 µM
CC(C)[C@H](NC(=O)c1ccc2ccccc2n1)C(=O)N[C@@H](Cc1ccccc1)[C@H](O)CN1CC[C@@H](OCc2ccncc2)C[C@H]1C(=O)NC(C)(C)C	ROD	-	C8166	p24 / ELISA / antigen	-	0.03 µM
Oc1cc(O)c2c(c1)O[C@H](c1ccc(O)c(O)c1)[C@H](O)C2	ROD	-	C8166	ELISA	-	2 µg/mL
COc1ccc(Cn2cc(CSc3nc(Cc4cccc5ccccc45)c(C)c(=O)[nH]3)nn2)cc1	ROD	-	-	MTT	-	>26.53 µM
CCOP(=O)(/C=C\n1cc(F)c(=O)[nH]c1=O)OCC	ROD	-	CEM + CEM-SS	-	-	>200 µM
COc1ccc(S(=O)(=O)N(CC(C)C)C[C@@H](O)[C@H](Cc2ccccc2)NC(=O)O[C@H]2CO[C@H]3OCC[C@H]32)cc1	EHO Laboratory isolate	-	MT-2	cytopathic effect / MTT	-	0.0005 µM
COC(=O)N[C@H](C(=O)N[C@@H](Cc1ccccc1)[C@@H](O)CN(Cc1ccc(-c2ccccn2)cc1)NC(=O)[C@@H](NC(=O)OC)C(C)(C)C)C(C)(C)C	ROD	-	MT-2	-	-	0.027 µM
O=c1[nH]c(=O)n(/C=C/P(=O)(O)O)cc1CO	ROD	-	CEM + CEM-SS	-	-	>200 µM
Cc1cccc(C)c1OCC(=O)N[C@@H](Cc1ccccc1)[C@@H](O)C[C@H](Cc1ccccc1)NC(=O)[C@H](C(C)C)N1CCCNC1=O	ROD	-	MT-2	MTT	-	0.018 µM
C#C[C@]1(CO)O[C@@H](n2cnc3c(N)ncnc32)C[C@@H]1O	ROD	-	HeLa	β-galactosidase	-	0.0019 µM
C#C[C@]1(CO)O[C@@H](n2cnc3c(N)nc(F)nc32)CC1O	ROD9	K65R	MAGIC-5A	β-galactosidase / absorbance	-	0.00017 µM
CC(C)CN(C[C@@H](O)[C@H](Cc1ccccc1)NC(=O)O[C@H]1CCOC1)S(=O)(=O)c1ccc(N)cc1	EHO Laboratory isolate	-	MT-2	cytopathic effect / MTT	-	0.53 µM
Cc1cn([C@H]2C[C@H](N=[N+]=[N-])[C@@H](CO)O2)c(=O)[nH]c1=O	EHO	-	MT-2	-	-	0.011 µM
CSC[C@H](NC(=O)COc1cccc2cnccc12)C(=O)N[C@@H](Cc1ccccc1)[C@H](O)C(=O)N1CSC(C)(C)[C@H]1C(=O)NC(C)(C)C	ROD	-	ATH8	cytopathic effect	-	0.13 µM
CCCC(=O)O[C@H]1CN2CC[C@H](O)[C@@H]2[C@@H](O)[C@@H]1O	ROD	-	H9	-	-	<4 µM
Cc1cccc2c1OP(=O)(OC[C@H]1C[C@@H](n3cc(C)c(=O)[nH]c3=O)C[C@@H]1O)OC2	-	-	CEM + CEM/0	-	-	0.7 µM
Nc1ncnc2c1ncn2[C@H]1CC[C@@H](CO)O1	LAV-2	-	U-937	virus yield	-	~0.1 µM
O=[N+]([O-])c1ccccc1S(=O)(=O)c1ccccc1	-	-	CEM + CEM-SS	cytopathic effect / XTT	-	>114 µM
CC(C)CN(C[C@@H](O)[C@H](Cc1ccccc1)NC(=O)[C@@H](NC(=O)CNCc1cccc(F)c1)C(C)(C)C)S(=O)(=O)c1ccc(N)cc1	-	-	MT-2	virus yield	-	<0.032 µM
Nc1nc(NC2CC2)c2ncn(C3C=C[C@@H](CO)C3)c2n1	ROD	-	CEM/TK-	-	-	7 µM
Cc1cn([C@@H]2CC[C@H](O)[C@H]2CO)c(=O)[nH]c1=O	-	-	CEM + CEM/0	-	-	103 µM
Cc1cn([C@H]2C=C[C@@H](COP3(=O)OCc4cccc(CCC(=O)OCc5ccccc5)c4O3)O2)c(=O)[nH]c1=O	LAV-2	-	CEM + CEM/O	syncytia	-	1 µM
CCOP(=O)(/C=C\n1cnc2c(N)ncnc21)OCC	ROD	-	CEM + CEM-SS	-	-	>200 µM
COC(=O)[C@H](C)NP(=O)(OC[C@@H]1CC[C@H](n2cnc3c(N)ncnc32)O1)Oc1ccccc1	ROD	-	MOLT-4/C8 + MOLT-4	-	-	0.05 µM
CCc1c(C(=O)c2cc(C)cc(C)c2)n(CC2CC=CC2)c(=O)[nH]c1=O	-	-	CEM + CEM-SS	cytopathic effect / XTT	-	0.0004 µM
C#C[C@]1(CO)O[C@@H](n2cnc3c(=O)[nH]cnc32)C[C@@H]1O	EHO	-	HeLa	β-galactosidase	-	0.37 µM
Oc1cc(O)c2c(c1)O[C@H](c1cc(O)c(O)c(O)c1)[C@H](O)C2	ROD	-	C8166	ELISA	-	>100 µg/mL
O=c1[nH]cnc2c1ncn2[C@H]1CC[C@@H](CO)O1	MS	-	CEM-T4 + CEM	cytopathic effect / MTT	-	0.3 µg/mL
CC1=C(C(=O)Nc2ccc(Cl)c(C(=O)OC(C)C)c2)SCCO1	-	-	CEM + CEM-SS	cytopathic effect / XTT	-	>28.1 µM
Nc1nc2c(ncn2C2C=C[C@@H](CO)C2)c(=O)[nH]1	ROD	-	CEM/TK-	-	-	3.7 µM
Cc1cn([C@H]2C=C[C@@H](COP3(=O)OCc4cccc(-c5ccccc5)c4O3)O2)c(=O)[nH]c1=O	-	-	CEM + CEM TK-	-	-	0.15 µM
CC(C)[C@H](NC(=O)c1ccc2ccccc2n1)C(=O)N[C@@H](Cc1ccccc1)[C@H](O)CN1CC[C@@H](OCc2ccncc2)C[C@H]1C(=O)NC(C)(C)C	ROD	-	C8166	p24	-	0.03 µM
Cc1cn([C@H]2C=C[C@@H](CO)O2)c(=O)[nH]c1=O	ROD	-	CEM/TK-	-	-	>50 µM
C1CNCCNCC(CCOCCOCCC2CNCCNCCCNCCNC2)CNCCNC1	GH-1	-	MOLT-4	syncytia	-	0.389 µM
CCN1c2ncccc2N(C)C(=S)c2sc3cccnc3c21	ROD	-	C8166	cytopathic effect	-	>38 µM
CCCCCCCCCCCCCCCOP(=O)(OCc1ccc(OC(=O)CCCC)cc1)OP(=O)(O)OP(=O)(O)OC[C@@H]1C=C[C@H](n2cc(C)c(=O)[nH]c2=O)O1	-	-	CEM/TK-	-	-	0.39 µM
Oc1cc(O)c2c(c1)O[C@H](c1ccc(O)c(O)c1)[C@@H](O)C2	ROD	-	C8166	ELISA	-	5 µg/mL
CCCCCCCCCCCCCCCCCCCCCCC(=O)O[C@@H]1[C@@H](C)[C@@]2(O)[C@@H](C=C(COC(C)=O)C[C@]3(O)C(=O)C(C)=C[C@@H]23)[C@@H]2C(C)(C)[C@]12O	CBL-20	-	C8166	cytopathic effect	-	0.255 µM
Cc1cn([C@H]2C=C[C@@H](COP3(=O)OCc4c(Cl)cccc4O3)O2)c(=O)[nH]c1=O	-	-	CEM + CEM TK-	-	-	0.8 µM
Cc1cn([C@H]2C=C[C@@H](COP3(=O)OCc4cccc(CCC(=O)O)c4O3)O2)c(=O)[nH]c1=O	LAV-2	-	CEM + CEM/O	syncytia	-	1.4 µM
COP(=O)(O)C[C@H](NP(=O)(O)OC[C@@H]1C=C[C@H](n2cc(C)c(=O)[nH]c2=O)O1)C(=O)O	ROD	-	CEM/TK-	MTT	-	177 µM
CC(C)c1cc2c(c(O)c1O)[C@@]1(C(=O)O)CCCC(C)(C)C1CC2	ROD	-	MT-2	-	-	0.014 µM
Cc1ccnc2c1NC(=O)c1cccnc1N2C1CC1	ROD	-	HT4 + HT4-6C	plaque count	-	>3.2 µM
CC(=O)c1ccc(Cn2cc(CSc3nc(Cc4c(Cl)cccc4Cl)c(C)c(=O)[nH]3)nn2)cc1	ROD	-	-	MTT	-	>32.58 µM
C[C@]1(CO)O[C@@H](n2ccc(N)nc2=O)C[C@@H]1O	ROD	-	HeLa	β-galactosidase	-	0.002 µM
CCOP(=O)(/C=C\n1ccc(=O)[nH]c1=O)OCC	ROD	-	CEM + CEM-SS	-	-	>200 µM
O=S1(=O)NC(Cc2ccc(Cl)cc2Cl)=CC(=NC2CCN(Cc3ccccc3)CC2)N1	ROD	-	MT-4	MTT	-	>110.8 µM
Cc1cn([C@H]2C[C@H](N=[N+]=[N-])[C@@H](CO)O2)c(=O)[nH]c1=O	MS	-	CEM + CEM-SS	cytopathic effect / XTT	-	0.007 µM
O=c1[nH]cnc2c1ncn2[C@H]1CC[C@@H](CO)O1	1814	-	PBMC	ELISA	-	0.63 µM
Cc1cccc(C)c1OCC(=O)N[C@@H](Cc1ccccc1)[C@@H](O)C[C@H](Cc1ccccc1)NC(=O)[C@H](C(C)C)N1CCCNC1=O	ROD	-	MT-2	MTT	-	0.018 µM
COC(=O)N[C@H](C(=O)N[C@@H](Cc1ccccc1)[C@@H](O)CN(Cc1ccc(-c2ccccn2)cc1)NC(=O)[C@@H](NC(=O)OC)C(C)(C)C)C(C)(C)C	ROD	-	MT-2	MTT	-	0.02 µM
CCOP(=O)(/C=C/n1cc(I)c(=O)[nH]c1=O)OCC	ROD	-	CEM + CEM-SS	-	-	>200 µM
CC(C)c1nc(CN(C)C(=O)N[C@H](C(=O)N[C@@H](Cc2ccccc2)C[C@H](O)[C@H](Cc2ccccc2)NC(=O)OCc2cncs2)C(C)C)cs1	EHO Laboratory isolate	-	MT-2	cytopathic effect / MTT	-	0.35 µM
CC(=O)OCOC(=O)CCc1ccc2c(c1)COP(=O)(OC[C@@H]1C=C[C@H](n3cc(C)c(=O)[nH]c3=O)O1)O2	LAV-2	-	CEM + CEM TK-	syncytia	-	25 µM
Cc1cn([C@H]2C=C[C@@H](COP3(=O)Oc4ccccc4C(C)O3)O2)c(=O)[nH]c1=O	-	-	CEM + CEM/O	-	-	0.34 µM
C=C(C)OC(=O)N1c2cc(Cl)ccc2NC(=S)C1(C)C	ROD	-	PBL	p24	-	>10 µM
CO[P@](=O)(c1cc(C)cc(/C=C/C#N)c1)c1c(C(N)=O)[nH]c2ccc(Cl)c(F)c12	ROD	-	H9	-	-	>1.25 µM
Cc1cccc2c1OP(=O)(OC[C@@H]1C=C[C@H](n3cnc4c(=O)[nH]cnc43)O1)OC2	-	-	CEM + CEM/0	-	-	5 µM
Cc1cn([C@H]2C[C@H](N=[N+]=[N-])[C@@H](CO)O2)c(=O)[nH]c1=O	-	-	CEM + CEM-SS	cytopathic effect / XTT	-	0.005 µM

A second listing of 5 rows from above:

SMILES | strain or isolate | changes | cells | method | setting | result
COP(=O)(O)C[C@H](NP(=O)(O)OC[C@@H]1C=C[C@H](n2cc(C)c(=O)[nH]c2=O)O1)C(=O)O | ROD | - | CEM/TK- | MTT | - | 177 µM
COc1ccc(S(=O)(=O)N(CC(C)C)C[C@@H](O)[C@H](Cc2ccccc2)NC(=O)O[C@H]2CO[C@H]3OCC[C@H]32)cc1 | EHO Laboratory isolate | - | MT-2 | cytopathic effect / MTT | - | 0.0005 µM
C#C[C@]1(CO)O[C@@H](n2cnc3c(N)ncnc32)C[C@@H]1O | ROD | - | HeLa | β-galactosidase | - | 0.0019 µM
C[C@H](Cn1cnc2c(=O)[nH]c(N)nc21)OCP(=O)(O)O | CBL-20 | - | C8166 | MTT | - | 5 µM
COC(=O)[C@H](C)NP(=O)(OC[C@@H]1CC[C@H](n2cnc3c(N)ncnc32)O1)Oc1ccccc1 | ROD | - | MOLT-4/C8 + MOLT-4 | - | - | 0.05 µM